Anti-infective test results gathered from many reports (values: NIAID ChemDB through PubChem).

Common to all: growth or infection tests; organism: HIV-1

An empty or dashed field is not shown. ECn is the concentration giving n% inhibition of infection, replication or growth. Fold resistance: result on the changed form divided by that on wild type. Neighbouring rows are from separate reports.

| compound | strain or isolate | mutations | cells | read by | endpoint | result |
|---|---|---|---|---|---|---|
| CC(C)=CCOc1cc(NC(=S)c2ccsc2C)ccc1Cl | UC10/costatolide-resistant (RT K103N) | RT-K103N | CEM + CEM-SS | cytopathic effect / XTT | fold resistance | 125 |
| O=C1Nc2ccc(Cl)cc2[C@@](/C=C/C2CC2)(C(F)(F)F)N1 |  | RT-G190S |  |  | EC90 | ~0.12 µM |
| CC(C)[C@H](NC(=O)OCc1ccccn1)C(=O)N[C@@H](Cc1ccccc1)[C@@H](O)C[C@H](Cc1ccccc1)NC(=O)OCc1cccnc1 | NL4-3 | PR-L10R L63P V82T | MT-4 | p24 | EC95 | 3 µM |
| COc1ccnc2[nH]cc(C(=O)C(=O)N3CCN(C(=O)c4ccccc4)C[C@H]3C)c12 | QH0692 |  | TZM-bl | luciferase | EC99 | 5.2 µM |
| CC(C)=CCOc1cc(NC(=S)c2ccoc2C)ccc1Cl | NL4-3 | RT-K101E | CEM + CEM-SS | p24 | fold resistance | 7 |
| CC(C)CN(CC(O)CCN1C[C@H]2CCCC[C@H]2C[C@H]1C(=O)NC(C)(C)C)S(=O)(=O)c1ccccc1 | IIIB |  | CEM | p24 | EC90 | 1 µM |
| CCN(C(=O)C(=O)N(C)C)C1CN(C)CCn2c1nc(C(=O)NCc1ccc(F)cc1)c(O)c2=O |  |  | MT-4 | p24 | EC95 | <1 µM |
| CC(=O)c1ccc(C)cc1NC(C(N)=O)c1c(Cl)cccc1Cl | UC040-R (RT-Y181C) | RT-Y181C | CEM + CEM-SS | cytopathic effect / XTT | EC50 | >1 µM |
| Cc1ccc(C)n1-c1ccc(C(=O)O)c(O)c1 | 93TH051 X4R5 CLADE E |  | PBMC + MT-2 | p24 | EC90 | 17.3 µM |
| CC(C)CN(CCC(O)CN1CCN(Cc2cccnc2)C[C@H]1C(=O)NC(C)(C)C)S(=O)(=O)c1ccccc1 | IIIB |  | CEM | p24 | EC90 | 1 µM |
| COc1ccnc2[nH]cc(C(=O)C(=O)N3C4CCCC3CN(C(=O)c3ccccc3)C4)c12 | PVO |  | TZM-bl | luciferase | EC99 | 41 µM |
| O=C1Nc2ccc(Cl)cc2[C@@](C#CC2CC2)(C(F)(F)F)N1 |  | RT-K103N |  |  | fold resistance | 5.26 |
| COc1ccc(S(=O)(=O)N(CC(C)C)CC(O)CN2CSC[C@H]2C(=O)NC(C)(C)C)cc1 | IIIB |  | CEM | p24 | EC90 | 1 µM |
| CC1(C)c2nc(C(=O)NCc3ccc(F)cc3)c(O)c(=O)n2CCN1CC#N |  |  | MT-4 | p24 | EC95 | <1 µM |
| Cc1cc(C#N)cc(C(=O)c2cc(Cl)ccc2OCC(=O)Nc2ccc(S(N)(=O)=O)nc2C)c1 | HXB2 (RT-K103N G190A) Recombinant | RT-K103N G190A | HeLa + HELA CD4+ | β-galactosidase | fold resistance | ~1 |
| COc1ccc(S(=O)(=O)N(CC(C)C)C[C@@H](O)CCN(CC(C)C)S(=O)(=O)N(C)C)cc1 | IIIB |  | CEM | p24 | EC90 | 1 µM |
| Cc1cc(OCCCS(N)(=O)=O)ccc1NC(=O)COc1ccc(Cl)cc1C(=O)c1cc(F)cc(C(F)(F)F)c1 | HXB2 | RT-K103N | HeLa + HELA CD4+ | β-galactosidase | fold resistance | ~1 |
| COc1ccc(S(=O)(=O)N(CC2CCCC2)C[C@H](O)CN(CCc2ccccc2)C(=O)O[C@H]2CCOC2)cc1 | IIIB |  | CEM | p24 | EC90 | 1 µM |
| CN1CCn2c(nc(C(=O)NCc3ccc(F)c(Br)c3)c(O)c2=O)C1(C)C |  |  | MT-4 | p24 | EC95 | <1 µM |
| COc1ccc(S(=O)(=O)N(CC(C)C)C[C@@H](O)CCN(CC2CCCC2)S(=O)(=O)c2ccc(N)cc2)cc1 | IIIB |  | CEM | p24 | EC90 | 1 µM |
| Cc1cc(C#N)cc(C(=O)c2cc(Cl)ccc2OCC(=O)Nc2ccc(S(N)(=O)=O)cc2C)c1 | HXB2 (RT-K103N Y181C) Recombinant | RT-K103N Y181C | HeLa + HELA CD4+ | β-galactosidase | fold resistance | ~1 |
| CC(C)CN(CC(O)CN(CC(C)C)S(=O)(=O)c1ccccc1)S(=O)(=O)c1ccccc1 | IIIB |  | CEM | p24 | EC90 | 1 µM |
| Cc1cc(S(N)(=O)=O)ccc1NC(=O)COc1ccc(Cl)cc1C(=O)c1cc(C#N)cc(C#N)c1 | HXB2 | RT-K103N | HeLa + HELA CD4+ | β-galactosidase | fold resistance | ~1 |
| CC(C)(C)OC(=O)NC(Cc1ccccc1)C(=O)C(=O)C(=O)N(CC1CCCC1)S(=O)(=O)c1ccccc1 | IIIB |  | CEM | p24 | EC90 | 1 µM |
| COc1ccccc1C(=O)Nc1ccc(Cl)c(C(=O)OC(C)C)c1 | UC781-R (RT-Y181C) | RT-Y181C | CEM + CEM-SS | cytopathic effect / XTT | fold resistance | 7.77 |
| Cc1cc(S(N)(=O)=O)ccc1NC(=O)COc1ccc(Cl)cc1C(=O)c1cc(F)cc(F)c1 | HXB2 | RT-P225H | HeLa + HELA CD4+ | β-galactosidase | fold resistance | ~1 |
| CCC(=O)c1ccc(F)c([C@@H]2C[C@@H]2NC(=O)Nc2ccc(C#N)cn2)c1O | LAI | NNRTI-resistant (RT K101E) | TZM-bl | β-galactosidase / luminescence | fold resistance | 4.8 |
| Cc1cc(C)cc(C(=O)c2cc(Cl)ccc2OCC(=O)Nc2ccc(S(N)(=O)=O)cc2C)c1 | HXB2 | RT-V106I | HeLa + HELA CD4+ | β-galactosidase | fold resistance | ~1 |
| COc1ccc(S(=O)(=O)N(CC(C)C)CC(O)C(=O)N2CSC[C@H]2C(=O)NC(C)(C)C)cc1 | IIIB |  | CEM | p24 | EC90 | 1 µM |
| CN(C)C(=O)C(=O)N(C)C1CN(C2CC2)CCn2c1nc(C(=O)NCc1ccc(F)c(Cl)c1)c(O)c2=O |  |  | MT-4 | p24 | EC95 | <1 µM |
| CC(C)=CCOc1cc(NC(=S)c2ccoc2C)ccc1Cl | Pyridinone-resistant (RT Y181C K103N) | RT-K103N Y181C | CEM + CEM-SS | cytopathic effect / XTT | fold resistance | >200 |
| Cc1cc(S(N)(=O)=O)ccc1NC(=O)COc1ccc(Cl)cc1C(=O)c1cccc(C#N)c1 | HXB2 | RT-K101E | HeLa + HELA CD4+ | β-galactosidase | fold resistance | ~1 |
| CN1CCn2c(nc(C(=O)NCc3ccc(F)cc3S(C)(=O)=O)c(O)c2=O)C1(C)C |  |  | MT-4 | p24 | EC95 | <1 µM |